In general, IC50 refers to the concentration that gives 50% inhibition.

Each structure is given as a SMILES string.

This test concerns G70C H1N9 wt. The conditions noted are these: read-out: IC50 G70C H1N9 wt.

For the molecule `CCOC(=O)C1=C[C@@H](OC(CC)CC)[C@H](NC(C)=O)[C@@H](N)C1` [Oseltamivir], the 50% inhibitory concentration (IC50) turned out to be 2800 nM.

Take `CC(=O)N[C@H]1[C@H]([C@H](O)[C@H](O)CO)OC(C(=O)O)=C[C@@H]1N=C(N)N` [Zanamivir]: the 50% inhibitory concentration (IC50) was determined as 2700 nM.

These data come from patent US9834534B2, “Neuraminidase inhibitor compounds, compositions and methods for the use thereof in anti-viral treatments” (THE UNIVERSITY OF BRITISH COLUMBIA, priority 2009, dated 2017).
